Amino acid sequences for entries named in this document (tags omitted).
UniProt P0A0I7, whole entry: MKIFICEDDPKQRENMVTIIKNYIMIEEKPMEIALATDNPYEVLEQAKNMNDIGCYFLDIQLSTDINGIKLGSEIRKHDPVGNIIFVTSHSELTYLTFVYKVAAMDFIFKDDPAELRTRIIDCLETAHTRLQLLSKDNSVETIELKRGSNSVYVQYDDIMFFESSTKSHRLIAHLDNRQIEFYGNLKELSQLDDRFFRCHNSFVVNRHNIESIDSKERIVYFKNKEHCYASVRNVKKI

According to publication PMC7899991:

Molecular target: AgrA (Staphylococcus aureus, UniProt P0A0I7)
Assay: fluorescence spectroscopy titration of Azan-7 with purified AgrA; supported by EMSA (reduced AgrA-P3 DNA complex)

Compound: O=C(O)c1cc(-c2ccccc2)nc(-c2ccccc2)c1O
- Kd: 90.9 nM
